Experimental findings from ChEMBL document CHEMBL3352527, “Phosphorus-nitrogen compounds. Part 29. Syntheses, crystal structures, spectroscopic and stereogenic properties, electrochemical investigations, antituberculosis, antimicrobial and cytotoxic activities and DNA interactions of ansa-spiro-ansa cyclotetraphosphazenes” (2014) are described below.

The source made the active and inactive calls. The rule behind the calls is not given here.

One assay concerns Pseudomonas aeruginosa. Description: Antimicrobial activity against Pseudomonas aeruginosa ATCC 27853 after 18 hrs by agar well diffusion assay. (In general: Agar diffusion results depend on both activity and mobility in agar.)
A further assay relates to Escherichia coli. Description: Binding affinity to Escherichia coli pBR322 plasmid DNA assessed as reduction in mobility of form-1 DNA at 312 to 5000 uM after 24 hrs by agarose gel electrophoresis.

Regarding `ClP1(Cl)=NP(Cl)(Cl)=NP(Cl)(Cl)=NP(Cl)(Cl)=N1`, in the assay on Pseudomonas aeruginosa, the inhibition zone (IZ) was found to be 9.7 mm. Also, the result in the assay with Escherichia coli was Active.
